Target: T1, TrkA (transfected expression construct)
T1 construct: also called TricA
Test: co-immunoprecipitation with anti-HA, blot anti-TrkA (RTA), NNR5 cells

B1: HA-tagged Karet(228-453), C-terminal truncation mutant of mouse Karet (other)
chain: FLDRAIFDGASTPTHHLSLHSDDSSTKVDMKDSYDADASTFCFPDSGDVGGLPPLPFCMQTSPHSKTVSESELSTSATELLQDYMLTLRTKLSSQEIQQFAALLHEYRNGASIHEFCISLRQLYGDSRKFLLLGLRPFIPEKDSQHFENFLETIGVKDGRGIITDSFGRHRRALSTTSTSTINGNRTTGSPDDRSAPSEGDEWDRMISDISSDIEALGCSMDQDSA
notes: also called non-PTB; Ha non PTB; not shown: HA tag
binding result: no binding

From patent US20090036380A1 (YEDA RESEARCH AND DEVELOPMENT, published 2009)
